Measured data: PubChem BioAssay AID624099 (ICCB-Longwood, 2012)
Here is a random part of about 21,000 reagents tested. Over the whole deposit, 497 (2.4%) are marked active. 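Higher z means weaker E2 silencing; only reporter increases were scored, and knock-downs that hurt cell survival may mask genuine repressor factors.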

Test: 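Human genes that papillomavirus E2 requires to repress the HPV18 LCR promoter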 (primary screen)
Cell system: human C33A cervical carcinoma cells (HPV-negative) stably expressing BPV1 E2 and an HPV18 LCR luciferase reporter
Knock-down reagent: siRNA pool against human genes, 40 nM
Duration: 72 h
Measured: 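Per-well luciferase luminescence, z-scored on each plate against the plate mean and SD with control wells left out, then averaged across three replicate plates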
Direction: mean z-score and z-score: higher = stronger reporter signal, weaker E2 silencing
Call rule: 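Mean z ≥ 2 together with z ≥ 2 in two or more of the three replicates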

{"target gene":"ROM1","mean z-score":0.3,"z-score, replicate A":0.48,"z-score, replicate B":0.41,"z-score, replicate C":-0.01,"Outcome":"inactive"}
{"target gene":"PKNOX1","mean z-score":0.41,"z-score, replicate A":0.52,"z-score, replicate B":0.4,"z-score, replicate C":0.31,"Outcome":"inactive"}
{"target gene":"CNDP1","mean z-score":1.98,"z-score, replicate A":2.29,"z-score, replicate B":1.8,"z-score, replicate C":1.84,"Outcome":"inactive"}
{"target gene":"LOC401495 (retired record)","mean z-score":-1.27,"z-score, replicate A":-1.65,"z-score, replicate B":-1.46,"z-score, replicate C":-0.7,"Outcome":"inactive"}
{"target gene":"SRRD","mean z-score":-0.07,"z-score, replicate A":0.03,"z-score, replicate B":0.09,"z-score, replicate C":-0.33,"Outcome":"inactive"}
{"target gene":"OR1J4","mean z-score":-0.5,"z-score, replicate A":-0.49,"z-score, replicate B":-0.62,"z-score, replicate C":-0.37,"Outcome":"inactive"}
{"target gene":"NINJ2","mean z-score":0.84,"z-score, replicate A":0.6,"z-score, replicate B":1.13,"z-score, replicate C":0.8,"Outcome":"inactive"}
{"target gene":"INKA1","mean z-score":0.9,"z-score, replicate A":0.73,"z-score, replicate B":0.88,"z-score, replicate C":1.09,"Outcome":"inactive"}
{"target gene":"MIR9-1HG","mean z-score":0.2,"z-score, replicate A":0.38,"z-score, replicate B":0.12,"z-score, replicate C":0.09,"Outcome":"inactive"}
{"target gene":"MACO1","mean z-score":1.27,"z-score, replicate A":1.05,"z-score, replicate B":1.41,"z-score, replicate C":1.34,"Outcome":"inactive"}
{"target gene":"COL12A1","mean z-score":-0.34,"z-score, replicate A":-0.44,"z-score, replicate B":-0.5,"z-score, replicate C":-0.1,"Outcome":"inactive"}
{"target gene":"THNSL1","mean z-score":0.05,"z-score, replicate A":0.2,"z-score, replicate B":-0.35,"z-score, replicate C":0.3,"Outcome":"inactive"}
{"target gene":"BMP5","mean z-score":-0.53,"z-score, replicate A":-0.28,"z-score, replicate B":-0.49,"z-score, replicate C":-0.82,"Outcome":"inactive"}
{"target gene":"EPS8L1","mean z-score":0.42,"z-score, replicate A":0.15,"z-score, replicate B":0.34,"z-score, replicate C":0.78,"Outcome":"inactive"}
{"target gene":"UBQLN4P1","mean z-score":0.99,"z-score, replicate A":1.26,"z-score, replicate B":0.66,"z-score, replicate C":1.04,"Outcome":"inactive"}
{"target gene":"LOC121792 (retired record)","mean z-score":-1.42,"z-score, replicate A":-1.25,"z-score, replicate B":-1.71,"z-score, replicate C":-1.31,"Outcome":"inactive"}
{"target gene":"EAPP","mean z-score":0.53,"z-score, replicate A":0.2,"z-score, replicate B":0.52,"z-score, replicate C":0.87,"Outcome":"inactive"}
{"target gene":"VAMP3","mean z-score":-0.52,"z-score, replicate A":-0.6,"z-score, replicate B":-0.36,"z-score, replicate C":-0.6,"Outcome":"inactive"}
{"target gene":"ARHGEF12","mean z-score":-0.28,"z-score, replicate A":-0.18,"z-score, replicate B":-0.3,"z-score, replicate C":-0.36,"Outcome":"inactive"}
{"target gene":"ABCF3","mean z-score":0.27,"z-score, replicate A":0.79,"z-score, replicate B":-0.03,"z-score, replicate C":0.07,"Outcome":"inactive"}
{"target gene":"SHLD1","mean z-score":1.28,"z-score, replicate A":1.55,"z-score, replicate B":1.03,"z-score, replicate C":1.24,"Outcome":"inactive"}
{"target gene":"TMEM119","mean z-score":1.85,"z-score, replicate A":1.93,"z-score, replicate B":1.82,"z-score, replicate C":1.79,"Outcome":"inactive"}
{"target gene":"CCL13","mean z-score":-0.24,"z-score, replicate A":-0.38,"z-score, replicate B":-0.35,"z-score, replicate C":0,"Outcome":"inactive"}
{"target gene":"PPID","mean z-score":0.32,"z-score, replicate A":0.4,"z-score, replicate B":0.33,"z-score, replicate C":0.22,"Outcome":"inactive"}
{"target gene":"ZNF544","mean z-score":0.61,"z-score, replicate A":0.6,"z-score, replicate B":0.27,"z-score, replicate C":0.97,"Outcome":"inactive"}
{"target gene":"MMP13","mean z-score":-0.83,"z-score, replicate A":-0.73,"z-score, replicate B":-1.02,"z-score, replicate C":-0.75,"Outcome":"inactive"}
{"target gene":"SERAC1","mean z-score":0.27,"z-score, replicate A":0.14,"z-score, replicate B":0.11,"z-score, replicate C":0.55,"Outcome":"inactive"}
